Measured values from several laboratories, pooled; numbers as filed in NIAID ChemDB.

All rows: tests in culture; species: HIV-1; read by: cytopathic effect; measure: EC50

An empty or dashed field is not shown.

compound | mutations | strain | cell line | value
Nc1ncnc2c1ncn2CCCC(O)CF |  | IIIB | CEM | >100 µg/mL
Nc1nc2c(ncn2C[C@@H](CO)OCP(=O)(O)O)c(=O)[nH]1 |  | IIIB | MT-4 | 43 µM
O=C(O)CCC(CCC(=O)O)(CCC(=O)O)NC(=O)CCC(CCC(=O)NC(CCC(=O)O)(CCC(=O)O)CCC(=O)O)(CCC(=O)NC(CCC(=O)O)(CCC(=O)O)CCC(=O)O)NC(=O)CCCOC(=O)C1(C(=O)OCCCC(=O)NC(CCC(=O)NC(CCC(=O)O)(CCC(=O)O)CCC(=O)O)(CCC(=O)NC(CCC(=O)O)(CCC(=O)O)CCC(=O)O)CCC(=O)NC(CCC(=O)O)(CCC(=O)O)CCC(=O)O)C2c3cc4c5c6c3-c3c(cc7c8c3C6C3c6c-5c(cc5ccc9cc(c-8c3c9c65)C7)C4)C21 | 3TC-resistant (RT M184V) |  | PBMC | 0.052 µM
Cc1cn(COCCOc2ccc(Cl)cc2)c(=O)[nH]c1=O |  |  | CEM + CEM-SS | 50.9 µM
Cc1cn(C(CF)CCCO)c(=O)[nH]c1=O |  | IIIB | CEM | >100 µg/mL
Nc1ncnc2c1ncn2C1CC(CO)(CO)C1 |  | LAV | CEM | >30 µg/mL
Cc1cn([C@@H]2O[C@H](C(COC(=O)c3ccccc3)OC(=O)c3ccccc3)C3(OS(=O)(=O)C=C3N)[C@H]2O[Si](C)(C)C(C)(C)C)c(=O)[nH]c1=O |  | IIIB | MT-4 | >5.6 µM
CCc1c(C)n(COCCOc2ccc(C)cc2)c(=O)[nH]c1=O |  |  | CEM + CEM-SS | >100 µM
Nc1nc2c(ncn2C[C@H](CO)OCP(=O)(O)O)c(=O)[nH]1 |  | IIIB | MT-4 | >12.5 µM
CC1(C)[C@@H](CCO)C[C@H]1n1cnc2c(=O)[nH]cnc21 |  |  | MT-4 | >100 µg/mL
Nc1ncnc2c1nc(Cl)n2[C@H]1CC[C@@H](CO)C1 |  | IIIB | MT-4 | >10 µM
Nc1ncc2ncn(C[C@@H](CF)OCP(=O)(O)O)c2n1 |  | IIIB | MT-4 | >300 µM
CN(C)C(=O)c1nc2c(N)ncnc2n1[C@H]1CC[C@@H](CO)C1 |  | IIIB | MT-4 | >10 µM
C=C[C@]1(C)[C@@H](O)CC2=C(CCC3C(C)(C)[C@@H](O)CC[C@]23C)[C@@H]1O |  |  | C8166 | 60.13 µM
Cc1c(Br)c(=O)[nH]c(=O)n1COCCOc1ccc(Cl)cc1 |  |  | CEM + CEM-SS | 7.2 µM
Nc1ncnc2c1ncn2[C@H]1CC[C@@H](CO)C1 |  | IIIB | MT-4 | >10 µM
C[C@@H](NS(=O)(=O)c1ccc(Cl)cc1)C(=O)NN |  | IIIB | MT-4 | >113 µg/mL
CC(=O)OCCOCn1cc(Cn2cc(F)c(=O)[nH]c2=O)nn1 |  | IIIB | MT-4 | >100 µg/mL
Cc1cn([C@H]2C=C[C@@H](CO)O2)c(=O)[nH]c1=O |  |  | JM | 40 µM
O=c1ccn(COCCOc2ccc(Cl)cc2)c(=O)[nH]1 |  |  | CEM + CEM-SS | 23.7 µM
Cc1cn(Cc2cn(COCCO)nn2)c(=O)[nH]c1=O |  | IIIB | MT-4 | >100 µg/mL
CCCN1C(=O)N(CCC)N(C(=O)C(C)C)C[C@@H](O)[C@H]1Cc1ccccc1 |  | IIIB | MT-4 | 2.9 µM
Nc1nc(N)c2ncn(C[C@@H](CO)OCP(=O)(O)O)c2n1 |  | IIIB | MT-4 | ≥62 µM
CCCC(CCC)C(=O)N1C[C@@H](O)[C@@H](Cc2ccccc2)N(Cc2ccc(O)cc2)C(=O)N1Cc1ccc(O)cc1 |  | IIIB | MT-4 | 0.33 µM
Cc1ccc(-c2nnc(-c3ccc(NS(=O)(=O)c4ccc(C)cc4)cc3)o2)cc1 |  | IIIB | MT-4 | >89 µg/mL
C/C(=C/CC[C@@H](C)[C@H]1CC[C@@]2(C)[C@@H]3CC[C@@H](C(C)(C)O)[C@@]4(CCC(=O)O)C[C@@]34CC[C@]12C)C(=O)O |  |  | C8166 | 0.52 µg/mL
Cc1ccc(C)c(C(C)S(=O)(=O)c2c(C)ccc[n+]2[O-])c1 | RT-Y181C |  | CEM | ≥20 µg/mL
Nc1ncnc2c1ncn2C[C@H](CO)OCP(=O)(O)O |  | IIIB | MT-4 | >330 µM
COc1ccc([C@]2(OC)O[C@@H](c3cc(OC)c(OC)c(OC)c3)[C@@]3(C)O[C@@]23C)cc1OC |  |  | C8166 | 16 µg/mL
CC1=CC[C@@H]([C@@H](C)[C@H]2CC[C@@]3(C)C4=C(C(=O)C[C@]23C)[C@H]2O[C@]23C=CC(=O)OC(C)(C)[C@@H]3CC4)OC1=O |  |  | C8166 | 1.09 µg/mL
Cc1cn(C2CC(CO)(CO)C2)c(=O)[nH]c1=O |  | LAV | CEM | >30 µg/mL
O=c1[nH]c(=O)n(Cc2cn(COCCO)nn2)cc1F |  | IIIB | MT-4 | >100 µg/mL
COP(=O)(c1cc(C)cc(CCC#N)c1)c1c(C(N)=O)[nH]c2ccc(Cl)cc12 | K103R/V179D/P225H | IIIB | MT-4 | 0.025 µM
COC(=O)[C@H](C)NP(=O)(OC[C@@H]1C=C[C@H](n2cnc3c(NC4CC4)nc(N)nc32)C1)Oc1ccccc1 |  | IIIB | MT-4 + CEM | 0.2 µM
Nc1nc2c(ncn2C[C@@H](CF)OCP(=O)(O)O)c(=O)[nH]1 |  | IIIB | MT-4 | 3.9 µM
O=S(=O)(NCCCc1n[nH]c(=S)o1)c1ccc(Cl)cc1 |  | IIIB | MT-4 | >70 µg/mL
Cc1cn([C@@H]2O[C@H](C3CO[Si](C(C)C)(C(C)C)O[Si](C(C)C)(C(C)C)O3)C3(OS(=O)(=O)C=C3N)[C@H]2O)c(=O)[nH]c1=O |  | IIIB | MT-4 | >6.3 µM
CC1(C)[C@@H](CCO)C[C@H]1n1cnc2c(=O)[nH]c(N)nc21 |  |  | MT-4 | >250 µg/mL
Nc1nc2c(ncn2[C@@H]2O[C@H](CO)[C@H](F)[C@H]2O)c(=O)[nH]1 |  |  | MT-4 | >490 µM
COc1cccc2c(-c3cccc([N+](=O)[O-])c3)cc(-c3cc(-c4cccc([N+](=O)[O-])c4)c4cccc(OC)c4c3O)c(O)c12 |  | RF | CEM + CEM-SS | >100 µM
Cc1cc(C)c(CS(=O)c2cccc[n+]2[O-])c(C)c1 | RT-Y181C |  | CEM | 10 µg/mL
Nc1ncnc2c1ncn2[C@@H]1O[C@H](OCP(=O)(O)O)C=C1F |  | WT | MT-2 | 12.3 µM
COc1cccc2c(-c3ccc4c(c3)OCO4)cc(-c3cc(-c4ccc5c(c4)OCO5)c4cccc(OC)c4c3O)c(O)c12 |  | RF | CEM + CEM-SS | >100 µM
Cc1c(C)n(COCCOc2ccc(Cl)cc2)c(=O)[nH]c1=O |  |  | CEM + CEM-SS | >100 µM
CSCO[C@]1(C)COC(C)(CC(=O)OC[C@@H]2C=C[C@H](n3cnc4c(N)ncnc43)O2)C1 |  |  | CEM + CEM/O | 50 µM
CNc1nc2c(N)ncnc2n1[C@H]1CC[C@@H](CO)C1 |  | IIIB | MT-4 | >10 µM
Cc1cn(CCCC(O)CF)c(=O)[nH]c1=O |  | IIIB | CEM | >100 µg/mL
Cc1ccc(C)c(CS(=O)(=O)c2cccc[n+]2[O-])c1 | RT-K103N |  | CEM | 11 µg/mL
COc1cc(C)cc2c(-c3ccc4c(c3)OCO4)cc(-c3cc(-c4ccc5c(c4)OCO5)c4cc(C)cc(OC)c4c3O)c(O)c12 |  | RF | CEM + CEM-SS | >100 µM
COCCOCCOCCOC(=O)C1(C(=O)OCCOCCOCCOC)C2c3cc4c5c6c3-c3c(cc7c8c3C63CN(CCOCCOCCN)CC36c3c-5c(cc5ccc9cc(c-8c6c9c35)C7)C4)C21 |  | IIIB | CEM | >4 µM
Cc1ccc(C)c(CSc2c(Cl)ccc[n+]2[O-])c1 | RT-Y181C |  | CEM | ≥20 µg/mL
C=C[C@]1(C)[C@@H](O)CC2=C(CCC3C(C)(C)C(=O)CC[C@]23C)[C@@H]1O |  |  | C8166 | 5.58 µM
O=C(CO)N1C[C@@H](O)[C@@H](Cc2ccccc2)N(Cc2ccc(O)cc2)C(=O)N1Cc1ccc(O)cc1 |  | IIIB | MT-4 | 3 µM
COc1cc(C)cc2c(-c3ccccc3)cc(-c3cc(-c4ccccc4)c4cc(C)cc(OC)c4c3O)c(O)c12 |  | RF | CEM + CEM-SS | >100 µM
C=C1CN(S(=O)(=O)c2ccc(C)cc2)CCCN(Cc2ccccc2)CCCN(S(=O)(=O)c2ccc(C)cc2)C1 |  | NL4-3 | MT-4 | 0.5 µM
CC1(C)[C@@H](CCO)C[C@H]1n1nnc2c(=O)[nH]c(N)nc21 |  |  | MT-4 | >250 µg/mL
CC(C)CCC[C@@H](C)[C@H]1CC[C@H]2[C@@H]3CC[C@H]4C[C@@H](CCC=C(c5cc(Cl)c(O)c(C(=O)O)c5)c5cc(Cl)c(O)c(C(=O)O)c5)CC[C@]4(C)[C@H]3CC[C@]12C |  | IIIB | MT-4 | 20 µM
CC1(C)[C@@H](CCO)C[C@H]1n1cnc2c(N)nc(N)nc21 |  |  | MT-4 | >250 µg/mL
COc1cc(OC)c2c(O)c(-c3cc(-c4cccs4)c4cc(OC)cc(OC)c4c3O)cc(-c3cccs3)c2c1 |  | RF | CEM + CEM-SS | >100 µM
O=C(c1ccco1)N1C[C@@H](O)[C@@H](Cc2ccccc2)N(Cc2ccc(O)cc2)C(=O)N1Cc1ccc(O)cc1 |  | IIIB | MT-4 | 1.92 µM
COc1cccc2c(-c3ccc(O)cc3O)cc(-c3cc(-c4ccc(O)cc4O)c4cccc(OC)c4c3O)c(O)c12 |  | RF | CEM + CEM-SS | >100 µM
O=c1[nH]c(=O)n(Cc2cn(COCCO)nn2)cc1Cl |  | IIIB | MT-4 | >100 µg/mL
Nc1nc2c(ncn2[C@@H]2O[C@H](CO)[C@@H](F)[C@H]2O)c(=O)[nH]1 |  |  | MT-4 | >877 µM

3 of the rows above, restated:

compound	mutations	strain	cell line	value
Cc1cn([C@@H]2O[C@H](C3CO[Si](C(C)C)(C(C)C)O[Si](C(C)C)(C(C)C)O3)C3(OS(=O)(=O)C=C3N)[C@H]2O)c(=O)[nH]c1=O		IIIB	MT-4	>6.3 µM
O=c1[nH]c(=O)n(Cc2cn(COCCO)nn2)cc1F		IIIB	MT-4	>100 µg/mL
Cc1ccc(C)c(C(C)S(=O)(=O)c2c(C)ccc[n+]2[O-])c1	RT-Y181C		CEM	≥20 µg/mL

ECn: concentration that inhibits the pathogen or its effect by n%. Neighbouring rows are from separate reports.